This is an account of results in US20140322196A1 (priority 2011, published 2014).

The subject of this data set is Influenza A/H1N1 (A/Roma-ISS/2/08 and A/Parma/24/09) and A/H3N2 (A/Parma/05/06). The format is cell-based, Influenza A virus.

B1: bLf: Lactoferrin from bovine milk, purchased from Morinaga Milk Industries, deprived of endotoxin (protein, UniProt P24627 20-708, looked up)
Lactotransferrin: APRKNVRWCTISQPEWFKCRRWQWRMKKLGAPSITCVRRAFALECIRAIAEKKADAVTLDGGMVFEAGRDPYKLRPVAAEIYGTKESPQTHYYAVAVVKKGSNFQLDQLQGRKSCHTGLGRSAGWIIPMGILRPYLSWTESLEPLQGAVAKFFSASCVPCIDRQAYPNLCQLCKGEGENQCACSSREPYFGYSGAFKCLQDGAGDVAFVKETTVFENLPEKADRDQYELLCLNNSRAPVDAFKECHLAQVPSHAVVARSVDGKEDLIWKLLSKAQEKFGKNKSRSFQLFGSPPGQRDLLFKDSALGFLRIPSKVDSALYLGSRYLTTLKNLRETAEEVKARYTRVVWCAVGPEEQKKCQQWSQQSGQNVTCATASTTDDCIVLVLKGEADALNLDGGYIYTAGKCGLVPVLAENRKSSKHSSLDCVLRPTEGYLAVAVVKKANEGLTWNSLKDKKSCHTAVDRTAGWNIPMGLIVNQTGSCAFDEFFSQSCAPGADPKSRLCALCAGDDQGLDKCVPNSKEKYYGYTGAFRCLAEDVGDVAFVKNDTVWENTNGESTADWAKNLNREDFRLLCLDGTRKPVTEAQSCHLAVAPNHAVVSRSDRAAHVKQVLLHQQALFGKNGKNCPDKFCLFKSETKNLLFNDNTECLAKLGGRPTYEEYLGTEYVTAIANLKKCSTSPLLEACAFLTR
On to B1, for which the “SI (selectivity index) = CC50/EC50” value is given as “about 10^6”.

B2: C-lobe: bovine lactoferrin C-lobe as named in the text, without saying which of the two fragments of Table 2 (protein)
chain: YTRVVWCAVGPEEQKKCQQWSQQSGQNVTCATASTTDDCIVLVLKGEADALNLDGGYIYTAGKCGLVPVLAENRKSSKHSSLDCVLRPTEGYLAVAVVKKANEGLTWNSLKDKKSCHTAVDRTAGWNIPMGLIVNQTGSCAFDEFFSQSCAPGADPKSRLCALCAGDDQGLDKCVPNSKEKYYGYTGAFRCLAEDVGDVAFVKNDTVWENTNGESTADWAKNLNREDFRLLCLDGTRKPVTEAQSCHLAVAPNHAVVSRSDRAAHVKQVLLHQQALFGKNGKNCPDKFCLFKSETKNLLFNDNTECLAKLGGRPTYEEYLGTEYVTAIANLKKCSTSPLLEACAFLTR
modifications: bovine lactoferrin C-lobe peptide
Turning to B2, the “SI relative to bLf” value is 2.5-5 fold.
